{"source": "PubChem BioAssay AID504761 (Drosophila RNAi Screening Center, 2011)", "screen": "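Insect host genes that dengue virus relies on to spread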 (primary screen)", "cells": "D.Mel-2 cells from Drosophila", "reagent": "long dsRNA against Drosophila genes", "treatment": "infection with dengue virus type 2; dose and infection time not stated", "read-out": "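Per well on two replicate plates, imaging gave the percent of cells positive for viral envelope protein, ranked by infection, and a nuclear count of cells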", "direction": "infection score: higher = more virus-infected cells; cell count: higher = more cells in the well", "active means": "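Low infection ranks in the two replicates (chance level up to 0.065) followed by a retest with a 1.5-fold or larger significant decrease, p below 0.05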", "calls": "active = confirmed: knock-down lowers infection; inactive = not picked or not confirmed", "note": "The screen tested about 22,000 reagents; below is an unselected part of those that have a named target and a result. Of all reagents, 116 (0.52%) were called active. 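Calls depend on retest data that are not deposited; infection was ranked per plate without normalising between plates; the unit of the infection score is not given.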 Raw values are not corrected between plates. The numbers tell different reagents against one gene apart. Not all columns of the deposit are shown. Reagent sequences are not shown. The record does not give: the amount of reagent, the time to read-out."}
{"gene knocked down":"CG13390","dsRNA no.":1,"infection score, replicate 1":3.54,"cell count, replicate 1":5679,"outcome":"inactive"}
{"gene knocked down":"CG13390","dsRNA no.":2,"infection score, replicate 1":9.02,"cell count, replicate 1":6560,"outcome":"inactive"}
{"gene knocked down":"Ir60d (Ionotropic receptor 60d)","dsRNA no.":1,"infection score, replicate 1":7.44,"cell count, replicate 1":6584,"outcome":"inactive"}
{"gene knocked down":"Hsf (Heat shock factor)","dsRNA no.":1,"infection score, replicate 1":13.8,"cell count, replicate 1":5025,"outcome":"inactive"}
{"gene knocked down":"Hsf (Heat shock factor)","dsRNA no.":2,"infection score, replicate 1":9.18,"cell count, replicate 1":4552,"outcome":"inactive"}
{"gene knocked down":"CG44774","dsRNA no.":1,"infection score, replicate 1":8.77,"cell count, replicate 1":5681,"outcome":"inactive"}
{"gene knocked down":"CG44774","dsRNA no.":2,"infection score, replicate 1":4,"cell count, replicate 1":6096,"outcome":"inactive"}
{"gene knocked down":"CG12517","dsRNA no.":1,"infection score, replicate 1":0.52,"cell count, replicate 1":6599,"outcome":"active"}
{"gene knocked down":"CG31821","dsRNA no.":1,"cell count, replicate 1":397,"outcome":"inactive"}

Ordered by “cell count, replicate 1” (lowest first): 2 of the entries above.
{"gene knocked down":"Hsf (Heat shock factor)","dsRNA no.":2,"infection score, replicate 1":9.18,"cell count, replicate 1":4552,"outcome":"inactive"}
{"gene knocked down":"Hsf (Heat shock factor)","dsRNA no.":1,"infection score, replicate 1":13.8,"cell count, replicate 1":5025,"outcome":"inactive"}

Additional records:
{"gene knocked down":"Hsp83 (Heat shock protein 83)","dsRNA no.":1,"infection score, replicate 1":1.12,"cell count, replicate 1":5379,"outcome":"inactive"}
{"gene knocked down":"Hsp83 (Heat shock protein 83)","dsRNA no.":2,"infection score, replicate 1":5.98,"cell count, replicate 1":5550,"outcome":"inactive"}
{"gene knocked down":"Pss (Phosphatidylserine synthase)","dsRNA no.":1,"infection score, replicate 1":3.71,"cell count, replicate 1":6627,"outcome":"inactive"}
{"gene knocked down":"pyd3","dsRNA no.":1,"infection score, replicate 1":2.98,"cell count, replicate 1":7072,"outcome":"inactive"}
{"gene knocked down":"pyd3","dsRNA no.":2,"infection score, replicate 1":2.89,"cell count, replicate 1":6011,"outcome":"inactive"}
